# Assay results taken from PubChem BioAssay AID841 (Emory University Molecular Libraries Screening Center, 2007).
# Only a part is listed here, and it is no random draw. Calls of active or inactive are those of the source. Cut-off read from the data, not from the text of the source: active = protection mostly above about 24% (no sharp cut-off); inactive = mostly below about 26%.
# Assay: compounds protecting cells from measles virus cytopathic effect, primary screen, measles RdRp inhibitor project, single point, MLSMR library, absorbance (AID 841)
# Conditions: Measles virus-infected cells, CPE protection, at 4 µM, hits give high values
row,Compound,protection (pct of control)
1,CP(=O)(Oc1ccccc1)N1CCOC1=O (stereo not drawn),inactive: 8.11%
2,CCN(CC)CC(O)COC(=O)C(O)(c1ccccc1)C1CCCCC1 (stereo not drawn),inactive: 12.4%
3,COc1ccc(OP(C)(=O)Nc2ccc(Br)cc2)cc1 (stereo not drawn),inactive: 6%
4,CP(=O)(Nc1ccc(Cl)cc1)Oc1ccc(F)cc1 (stereo not drawn),inactive: 10.2%
5,CC(C)(C)c1ccc(OP(C)(=O)O)cc1,inactive: 8.59%
6,CP(=O)(OC12CC3CC(CC(C3)C1)C2)OC12CC3CC(CC(C3)C1)C2,inactive: 5.84%
7,CCOC(=O)c1ccc(NP(C)(=O)Oc2ccc(Cl)cc2)cc1 (stereo not drawn),inactive: 6.95%
8,COc1ccc(OP(C)(=O)Nc2ccccc2Br)cc1 (stereo not drawn),inactive: 2.94%
9,COc1ccccc1OP(C)(=O)Nc1ccc(C)c(C)c1 (stereo not drawn),inactive: 13.8%
10,Cc1nc2ccc3ccccc3c2o1.O=[N+]([O-])c1cc([N+](=O)[O-])c(O)c([N+](=O)[O-])c1,inactive: 3.4%
11,CN(C)CCOC(=O)C(O)(c1ccccc1)C1CCCC1 (stereo not drawn),inactive: 28.7%
12,COc1ccc(OP(C)(=O)Nc2ccccn2)cc1 (stereo not drawn),inactive: 18.8%
13,CCc1ccc(OP(C)(=O)O)cc1,inactive: 4.83%
14,CP(=O)(Nc1ccccn1)Oc1ccccc1 (stereo not drawn),inactive: 5.05%
15,COc1ccccc1OP(C)(=O)Nc1ccc(C)cc1C (stereo not drawn),inactive: 4.92%
16,Cc1c(NP(C)(=O)Oc2ccc(C(C)C)cc2)c(=O)n(-c2ccccc2)n1C (stereo not drawn),inactive: 6.89%
17,CC(C)c1ccc(OP(C)(=O)Nc2ccc(SC(F)(F)F)cc2)cc1 (stereo not drawn),inactive: 4.07%
18,CP(=O)(Nc1ccccc1F)Oc1ccccc1 (stereo not drawn),inactive: 22%
19,O=C(OCCN1CCN(CCOCc2ccccc2)CC1)C(O)(c1ccccc1)c1ccccc1,inactive: 5.26%
20,CCOC(=O)c1ccc(NP(C)(=O)Oc2ccc(F)cc2)cc1 (stereo not drawn),inactive: 3.79%
21,CP(=O)(Nc1ccccc1)Oc1ccc(F)cc1 (stereo not drawn),inactive: 5.93%
22,CCN(CC)CCCOC(=O)C(O)(c1ccccc1)C1CCCCC1 (stereo not drawn),inactive: 7.95%
23,CN(C)CCOC(=O)C(O)(c1ccccc1)C1CCCCC1 (stereo not drawn),inactive: 3.2%
24,COc1ccc(OP(C)(=O)Nc2cccc(Br)c2)cc1 (stereo not drawn),inactive: 42.1%
25,CCOP(C)(=S)SCC(=O)NC(C)(CC)C(=O)O (stereo not drawn),inactive: 14.4%
26,Cc1ccccc1NP(C)(=O)Nc1ccccc1C,inactive: 16.2%
27,CP(=O)(Nc1ccc2c(c1)OCCO2)Oc1ccccc1 (stereo not drawn),inactive: 8.52%
28,Cc1nc2ccc3ccccc3c2s1.O=[N+]([O-])c1cc([N+](=O)[O-])c(O)c([N+](=O)[O-])c1,inactive: 8.11%
